Literature values as cited in doi:10.1101/2025.05.02.651913 (bioRxiv, 2025).

Tested on: Clade I MPXV
Conditions: cited from earlier work

B1: IFN-β (protein, UniProt P01574 22-187, looked up)
Interferon beta: MSYNLLGFLQRSSNFQCQKLLWQLNGRLEYCLKDRMNFDIPEEIKQLQQFQKEDAALTIYEMLQNIFAIFRQDSSSTGWNETIVENLLANVYHQINHLKTVLEEKLEKEDFTRGKLMSSLHLKRYYGRILHYLKAKEYSHCAWTIVRVEILRNFYFINRLTGYLRN
**Q.** Which “Clade I MPXV infection in vitro” value does the source give for B1 here?
**A.** The value was “significantly reduce Clade I MPXV infection”.
